## Genome-wide point mutation profile of HIV-1: Gag

Reference: Al-Mawsawi et al. 2014, doi:10.1186/s12977-014-0124-6.

Protein: Gag of HIV-1 NL4-3, numbered from its first residue. Gag is numbered as the whole polyprotein.
"Other frame" gives the effect on an overlapping gene as the source lists it; other overlaps (genes, RNA elements) are not shown.

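Seven fragments of pNL4-3 were mutated by error-prone PCR, and each virus pool was passaged in CEM T cells. Sequencing gave the RC index: frequency after two rounds over frequency in the input plasmid.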

Values are the RC index; higher means better tolerated. The authors read about 0.1 or less as lethal, 0.1-0.2 as attenuated and 0.2 or more as tolerated. Each entry names the wild-type residue, its position and the residue put in its place. Nucleotide positions follow pNL4-3.

- V168E (base T1292A, region CA): 0.0380
- S111I (base G1121T, region MA): 0.0828
- N271D (base A1600G, region CA): 0.0461
- V88A (base T1052C, region MA): 0.0765
- A364P (base G1879C, region p2): 0.145
- P257T (base C1558A, region CA): 0.114
- R384K (base G1940A, region NC p7): 16.8
- G178E (base G1322A, region CA): 0.175
- A146G (base C1226G, region CA): 0.183
- N447S (base A2129G, region p1 / p6*, other frame p6* silent): 0.0381
- A309V (base C1715T, region CA): 0.106
- G10A (base G818C, region MA): 0.0339
- K397E (base A1978G, region NC p7): 0.0211
- L78I (base T1021A, region MA): 0.0524
- A120D (base C1148A, region MA): 0.103
- V168L (base G1291T, region CA): 0.0592
- E12V (base A824T, region MA): 0.00929
- N327S (base A1769G, region CA): 0.0419
- K110T (base A1118C, region MA): 0.144
- K272E (base A1603G, region CA): 0.0584
- T240S (base A1507T, region CA): 0.0209
- M367I (base G1890T, region p2): 0.263
- H194N (base C1369A, region CA): 0.101
- A360T (base G1867A, region CA): 0.101
- N109Y (base A1114T, region MA): 0.0108
- D14Y (base G829T, region MA): 0.162
- I273L (base A1606T, region CA): 0.0364
- G435W (base G2092T, region p1): 0.130
- S6A (base T805G, region MA): 0.0420
- K112M (base A1124T, region MA): 0.0431
- V362A (base T1874C, region CA): 0.0880
- P48H (base C932A, region MA): 0.0700
- A209D (base C1415A, region CA): 0.0304
- N109D (base A1114G, region MA): 0.0158
- G381D (base G1931A, region NC p7): 0.748
- G340E (base G1808A, region CA): 0.179
- Q136E (base C1195G, region CA): 0.0428
- I19V (base A844G, region MA): 0.0299
- S72L (base C1004T, region MA): 0.215
- Y132H (base T1183C, region MA): 0.0732
- L283R (base T1637G, region CA): 0.0231
- L13F (base A828T, region MA): 0.0279
- Y262C (base A1574G, region CA): 0.0766
- E245D (base A1524T, region CA): 0.225
- T151S (base A1240T, region CA): 0.0551
- A37P (base G898C, region MA): 0.0414
- K391N (base G1962C, region NC p7): 0.157
- C350R (base T1837C, region CA): 0.0362
- N327D (base A1768G, region CA): 0.0338
- A45P (base G922C, region MA): 0.304
- G178R (base G1321A, region CA): 0.213
- K388R (base A1952G, region NC p7): 0.127
- N125I (base A1163T, region MA): 0.0552
- T180S (base A1327T, region CA): 0.0624
- I60K (base T968A, region MA): 0.0132
- F44V (base T919G, region MA): 0.122
- E167G (base A1289G, region CA): 0.0333
- A115T (base G1132A, region MA): 0.180
- Q246L (base A1526T, region CA): 0.0413
- G396A (base G1976C, region NC p7): 0.0749
- E398G (base A1982G, region NC p7): 0.0743
- K15N (base A834C, region MA): 0.0360
- G355R (base G1852A, region CA): 0.141
- S440F (base C2108T, region p1): 0.0635
- V143E (base T1217A, region CA): 0.0453
- P170T (base C1297A, region CA): 0.153
- I401T (base T1991C, region NC p7): 0.149
- I247L (base A1528T, region CA): 0.0389
- S129I (base G1175T, region MA): 0.0925

An index over 1, which the authors read as above wild type, was rare (1.9% of all changes in the genome). Since each clone held several changes (about five per kb), neutral changes can read low.